Patent EP4821928A1, “BICYCLIC HETEROCYCLIC COMPOUND AND FUNGICIDE FOR AGRICULTURAL AND HORTICULTURAL USE CONTAINING SAME AS ACTIVE INGREDIENT” (dated 2026)

Legend:
[1] = tested on: Gray mold fungus (Botrytis cinerea); assay: Gray mold anti-germ test (Test Example C); details: for Gray mold anti-germ test (rate of inhibition): 50 ppm/well, Czapek-dox broth, 25°C for 3 days, absorbance 600 nm; for rate of inhibition: Test Example C, gray mold anti-germ test
[2] = tested on: Anthracnose fungus (Glomerella cingulata); assay: Anthracnose anti-germ test (Test Example E); details: for Anthracnose anti-germ test (rate of inhibition): 50 ppm/well, Czapek-dox broth, 25°C for 3 days, absorbance 600 nm; for rate of inhibition: Test Example E, anthracnose anti-germ test
Magnaporthe grisea = assay: Rice blast disease pot test (Test Example A); details: for Rice blast disease pot test (control value): 250 ppm sprayed, 2.5 ml/pot, rice variety Sachikaze, degree of disease development 6 to 8 days after inoculation; for control value: Test Example A, rice blast disease pot test
[3] = tested on: Fusarium blight fungus (Fusarium graminearum); assay: Fusarium blight anti-germ test (Test Example D); details: for Fusarium blight anti-germ test (rate of inhibition): 50 ppm/well, Czapek-dox broth, 25°C for 3 days, absorbance 600 nm; for rate of inhibition: Test Example D, Fusarium blight anti-germ test
Botrytis cinerea = assay: Tomato gray mold pot test (Test Example B); details: for Tomato gray mold pot test (control value): 250 ppm sprayed, 2.5 ml/pot, tomato variety Oogata Fukuju, degree of disease development 2 to 3 days after inoculation; for control value: Test Example B, tomato gray mold pot test
[4] = tested on: Speckled leaf blotch fungus (Septoria tritici); assay: Speckled leaf blotch anti-germ test (Test Example F); details: for Speckled leaf blotch anti-germ test (rate of inhibition): 50 ppm/well, Czapek-dox broth, 25°C for 3 days, absorbance 600 nm; for rate of inhibition: Test Example F, speckled leaf blotch anti-germ test

SMILES | Gray mold anti-germ test (rate of inhibition) [1] | Anthracnose anti-germ test (rate of inhibition) [2] | Rice blast disease pot test (control value) (Magnaporthe grisea) | Fusarium blight anti-germ test (rate of inhibition) [3] | Tomato gray mold pot test (control value) (Botrytis cinerea) | Speckled leaf blotch anti-germ test (rate of inhibition) [4] | rate of inhibition [1] | rate of inhibition [2] | control value (Magnaporthe grisea) | rate of inhibition [3] | control value (Botrytis cinerea) | rate of inhibition [4]
Cc1ccc2c(c1)OC(C)(C)N=C2n1cnc2c(Cl)cccc21 | H (H represents a control value or rate of inhibition of larger than 50%) | H (H represents a control value or rate of inhibition of larger than 50%) | H (H represents a control value or rate of inhibition of larger than 50%) | H (H represents a control value or rate of inhibition of larger than 50%) | H (H represents a control value or rate of inhibition of larger than 50%) | H (H represents a control value or rate of inhibition of larger than 50%) | – | – | – | – | – | –
Cc1cccc2c(C3=NC(C)(C)Sc4c(F)cccc43)cnn12 | – | – | – | – | – | – | H (H represents a control value or rate of inhibition of larger than 50%) | H (H represents a control value or rate of inhibition of larger than 50%) | H (H represents a control value or rate of inhibition of larger than 50%) | H (H represents a control value or rate of inhibition of larger than 50%) | H (H represents a control value or rate of inhibition of larger than 50%) | H (H represents a control value or rate of inhibition of larger than 50%)
CCCC1(C)N=C(n2cnc3c(C)c(C)cnc32)c2ccccc2O1 (stereo not drawn) | – | – | – | – | – | – | H (H represents a control value or rate of inhibition of larger than 50%) | H (H represents a control value or rate of inhibition of larger than 50%) | H (H represents a control value or rate of inhibition of larger than 50%) | H (H represents a control value or rate of inhibition of larger than 50%) | H (H represents a control value or rate of inhibition of larger than 50%) | H (H represents a control value or rate of inhibition of larger than 50%)
Cc1ccc2c(C3=NC(C)(C)Sc4c(F)cccc43)cnn2c1C | H (H represents a control value or rate of inhibition of larger than 50%) | H (H represents a control value or rate of inhibition of larger than 50%) | H (H represents a control value or rate of inhibition of larger than 50%) | H (H represents a control value or rate of inhibition of larger than 50%) | H (H represents a control value or rate of inhibition of larger than 50%) | H (H represents a control value or rate of inhibition of larger than 50%) | – | – | – | – | – | –
Cc1cn2ncc(C3=NC(C)(C)Oc4c(C)cccc43)c2nc1C | L (L represents a control value or rate of inhibition of 50% or less) | H (H represents a control value or rate of inhibition of larger than 50%) | H (H represents a control value or rate of inhibition of larger than 50%) | H (H represents a control value or rate of inhibition of larger than 50%) | L (L represents a control value or rate of inhibition of 50% or less) | L (L represents a control value or rate of inhibition of 50% or less) | – | – | – | – | – | –
COc1ccc2c(c1)OC(C)(C)N=C2n1cnc2c(F)c(F)ccc21 | H (H represents a control value or rate of inhibition of larger than 50%) | H (H represents a control value or rate of inhibition of larger than 50%) | L (L represents a control value or rate of inhibition of 50% or less) | H (H represents a control value or rate of inhibition of larger than 50%) | H (H represents a control value or rate of inhibition of larger than 50%) | H (H represents a control value or rate of inhibition of larger than 50%) | – | – | – | – | – | –
Cc1cccc2c1OC(C)(C)N=C2n1c(C)nc2c(C)c(C)ccc21 | H (H represents a control value or rate of inhibition of larger than 50%) | H (H represents a control value or rate of inhibition of larger than 50%) | H (H represents a control value or rate of inhibition of larger than 50%) | H (H represents a control value or rate of inhibition of larger than 50%) | H (H represents a control value or rate of inhibition of larger than 50%) | H (H represents a control value or rate of inhibition of larger than 50%) | – | – | – | – | – | –
Cc1cccc2c1OC(C)(C)N=C2n1cnc2c(C)c(C)ccc21 | H (H represents a control value or rate of inhibition of larger than 50%) | H (H represents a control value or rate of inhibition of larger than 50%) | H (H represents a control value or rate of inhibition of larger than 50%) | H (H represents a control value or rate of inhibition of larger than 50%) | H (H represents a control value or rate of inhibition of larger than 50%) | H (H represents a control value or rate of inhibition of larger than 50%) | – | – | – | – | – | –
CCCC1(C)N=C(n2cnc3c(C)c(Br)cnc32)c2ccccc2O1 (stereo not drawn) | – | – | – | – | – | – | H (H represents a control value or rate of inhibition of larger than 50%) | H (H represents a control value or rate of inhibition of larger than 50%) | H (H represents a control value or rate of inhibition of larger than 50%) | H (H represents a control value or rate of inhibition of larger than 50%) | H (H represents a control value or rate of inhibition of larger than 50%) | H (H represents a control value or rate of inhibition of larger than 50%)
Cc1ccnc2c1ncn2C1=NC(C)(C)Oc2cccc(F)c21 | L (L represents a control value or rate of inhibition of 50% or less) | H (H represents a control value or rate of inhibition of larger than 50%) | H (H represents a control value or rate of inhibition of larger than 50%) | L (L represents a control value or rate of inhibition of 50% or less) | H (H represents a control value or rate of inhibition of larger than 50%) | L (L represents a control value or rate of inhibition of 50% or less) | – | – | – | – | – | –
CCCCC1(C)N=C(c2cnn3c(C(F)(F)F)c(C)cnc23)c2cccc(F)c2O1 (stereo not drawn) | – | – | – | – | – | – | H (H represents a control value or rate of inhibition of larger than 50%) | H (H represents a control value or rate of inhibition of larger than 50%) | H (H represents a control value or rate of inhibition of larger than 50%) | H (H represents a control value or rate of inhibition of larger than 50%) | H (H represents a control value or rate of inhibition of larger than 50%) | H (H represents a control value or rate of inhibition of larger than 50%)
CCCCC1(C)N=C(c2cnn3c(C)c(C)ccc23)c2ccccc2S1 (stereo not drawn) | H (H represents a control value or rate of inhibition of larger than 50%) | H (H represents a control value or rate of inhibition of larger than 50%) | H (H represents a control value or rate of inhibition of larger than 50%) | H (H represents a control value or rate of inhibition of larger than 50%) | H (H represents a control value or rate of inhibition of larger than 50%) | H (H represents a control value or rate of inhibition of larger than 50%) | – | – | – | – | – | –
Cc1ccc2c(c1)OC(C)(C1CCC1)N=C2n1cnc2c(C)c(C)ccc21 (stereo not drawn) | H (H represents a control value or rate of inhibition of larger than 50%) | H (H represents a control value or rate of inhibition of larger than 50%) | H (H represents a control value or rate of inhibition of larger than 50%) | H (H represents a control value or rate of inhibition of larger than 50%) | H (H represents a control value or rate of inhibition of larger than 50%) | H (H represents a control value or rate of inhibition of larger than 50%) | – | – | – | – | – | –
